test system: red blood cell membranes (RBCMs); assay: Fluorescence spectroscopy, Laurdan generalized polarization; design: species or system pig; conditions: 80 and 100 µM, 37 °C

Compound	change of generalized polarization (GP) of Laurdan probe
C[C@@H](I)[C@]12CCCC[C@H]1CC(=O)O2 [6a, (−)-(1S,6S,1′R)-1-(1′-Iodoethyl)-9-oxabicyclo[4.3.0]nonan-8-one]	slight increase
C[C@H](I)[C@@]12CCCC[C@@H]1CC(=O)O2 [6b, (+)-(1R,6R,1′S)-1-(1′-Iodoethyl)-9-oxabicyclo[4.3.0]nonan-8-one]	slight increase
C[C@@H](Br)[C@]12CCCC[C@H]1CC(=O)O2 [7a, (−)-(1S,6S,1′R)-1-(1′-Bromoethyl)-9-oxabicyclo[4.3.0]nonan-8-one]	small decrease
C[C@H](Br)[C@@]12CCCC[C@@H]1CC(=O)O2 [7b, (+)-(1R,6R,1′S)-1-(1′-Bromoethyl)-9-oxabicyclo[4.3.0]nonan-8-one]	small decrease
C[C@@H](Cl)[C@]12CCCC[C@H]1CC(=O)O2 [8a, (−)-(1S,6S,1′R)-1-(1′-Chloroethyl)-9-oxabicyclo[4.3.0]nonan-8-one]	slight increase
C[C@H](Cl)[C@@]12CCCC[C@@H]1CC(=O)O2 [8b, (+)-(1R,6R,1′S)-1-(1′-Chloroethyl)-9-oxabicyclo[4.3.0]nonan-8-one]	slight increase

From publication PMC7022392, “Chemoenzymatic Synthesis of Enantiomeric, Bicyclic δ-Halo-γ-lactones with a Cyclohexane Ring, Their Biological Activity and Interaction with Biological Membranes” (Biomolecules, 2020)
